Reference: patent publication US9034887B2, “Dihydroorotate dehydrogenase as antifungal drug target and quinazolinone-based inhibitors thereof” (F2G Limited, priority 2008, dated 2015)
Like-named read-outs stand apart in the source and are kept apart here.

Chains of the proteins cited; added tags and fusions are not shown. Residues count along the entry.
UniProt Q4X169, 89-531 limits assumed: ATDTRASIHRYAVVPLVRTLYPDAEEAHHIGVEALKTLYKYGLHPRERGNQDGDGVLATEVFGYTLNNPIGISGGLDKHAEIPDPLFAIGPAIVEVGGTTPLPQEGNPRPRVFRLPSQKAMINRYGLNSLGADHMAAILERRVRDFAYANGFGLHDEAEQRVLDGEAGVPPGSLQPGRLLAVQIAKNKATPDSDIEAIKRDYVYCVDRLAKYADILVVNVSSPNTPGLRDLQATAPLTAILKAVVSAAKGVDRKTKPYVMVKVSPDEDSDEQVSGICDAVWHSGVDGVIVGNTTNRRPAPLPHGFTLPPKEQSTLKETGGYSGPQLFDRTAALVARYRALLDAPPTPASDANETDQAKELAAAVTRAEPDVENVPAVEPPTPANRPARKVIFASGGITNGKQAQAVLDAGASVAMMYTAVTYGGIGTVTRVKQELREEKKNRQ
UniProt Q874I4, 57-444 limits assumed: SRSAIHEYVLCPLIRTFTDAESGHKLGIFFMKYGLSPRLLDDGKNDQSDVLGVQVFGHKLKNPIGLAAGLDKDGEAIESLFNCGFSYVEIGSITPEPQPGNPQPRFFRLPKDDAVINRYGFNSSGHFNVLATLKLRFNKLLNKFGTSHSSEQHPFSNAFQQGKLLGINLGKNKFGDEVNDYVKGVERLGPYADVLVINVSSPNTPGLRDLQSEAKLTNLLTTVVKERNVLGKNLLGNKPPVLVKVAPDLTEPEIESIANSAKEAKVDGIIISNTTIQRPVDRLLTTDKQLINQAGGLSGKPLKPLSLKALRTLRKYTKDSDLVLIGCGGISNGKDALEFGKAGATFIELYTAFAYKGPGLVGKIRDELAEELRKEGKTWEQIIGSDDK

How the values were obtained:
[1] = target: Recombinant A. fumigatus DHODH (Aspergillus fumigatus, UniProt Q4X169); experiment: DHODH inhibition screen (DCIP reduction, 600 nm), A. fumigatus enzyme
[2] = target: Recombinant DHODH from C. albicans (Candida albicans, UniProt Q874I4); experiment: DHODH inhibition screen (DCIP reduction, 600 nm), C. albicans enzyme; type: biochemical; settings: read-out: IC50 values for DHODH inhibitors identified from screens, C. albicans, Table 1, 20 minutes incubation
[3] = read-out: IC50 values for Compound Examples 1 to 15 identified from screens, A. fumigatus, Table 3

COc1ccccc1-n1c(SC(C)C)nc2ccc(C)cc2c1=O [Compound Example 2, 2-Isopropylsulfanyl-3-(2-methoxy-phenyl)-6-methyl-3H-quinazolin-4-one]
IC50 [1, 3]: 2.83 µM | IC50 [2]: > 128 µM

COc1ccccc1-n1c(SC(C)C)nc2cccc(C)c2c1=O [Compound Example 3, 2-Isopropylsulfanyl-3-(2-methoxy-phenyl)-5-methyl-3H-quinazolin-4-one]
IC50 [1, 3]: 4.52 µM | IC50 ([1]; read-out: IC50 values for DHODH inhibitors identified from screens, A. fumigatus, Table 1, 24 minutes incubation): 2.14 µM | IC50 [2]: > 133 µM

COc1ccccc1-n1c(SC(C)C)nc2cc(C)ccc2c1=O [Compound Example 1, 2-Isopropylsulfanyl-3-(2-methoxy-phenyl)-7-methyl-3H-quinazolin-4-one]
IC50 [1, 3]: 1.46 µM | IC50 [2]: 36.1 µM
